The results in this text go back to patent publication US20240109955A1.

Holding throughout (experiment): cell-based or functional assay
The target in experiment [1] is SARS-CoV-2 Omicron BA.4/5 spike protein (S) on lentiviral pseudovirions (SARS-CoV-2) (UniProt P0DTC2).
Experiment [2] concerns the target SARS-CoV-2 spike (S) protein, Delta variant AY.1 (SARS-CoV-2) (UniProt P0DTC2).
In experiment [3] the target is SARS-CoV-2 spike (S) protein, Kappa variant (B.1.617.1) (SARS-CoV-2) (UniProt P0DTC2).
The target in experiment [4] is SARS-CoV-2 D614G spike protein mutant (D614G) (SARS-CoV-2) (UniProt P0DTC2).
Experiment [5] addresses SARS-CoV-2 spike protein, Delta variant (B.1.617.2) (SARS-CoV-2) (UniProt P0DTC2).
Experiment [6] has as its target SARS-CoV-2 spike protein, Omicron sublineage BA.4/5 (SARS-CoV-2) (UniProt P0DTC2).
For experiment [7], the target named is SARS-CoV-2 spike (S) protein, Omicron sublineage BA.2.75.2 (R346T, F486S) (SARS-CoV-2) (UniProt P0DTC2).

In experiment [1], A19-61 mAb (antibody) registered an IC50, pseudovirus neutralization (BA.4/5) of 0.128 nM and an IC80, pseudovirus neutralization (BA.4/5) of 0.322 nM.

With A19-61.1 (antibody), in experiment [2], the pseudovirus neutralization IC50 (nM (inferred)) was determined as 0.0557 and the pseudovirus neutralization IC80 (nM (inferred)) was 0.121. In experiment [3], this substance yielded a pseudovirus neutralization IC50 (nM (inferred)) of 0.0815 and a pseudovirus neutralization IC80 (nM (inferred)) of 0.173.

Take A23-58 mAb (antibody): in experiment [1], the IC50, pseudovirus neutralization (BA.4/5) was > 66.7 nM and the IC80, pseudovirus neutralization (BA.4/5) is > 66.7 nM.

Regarding A23-58H/B1-182L mAb (antibody), in experiment [4], the IC50 (pseudovirus neutralization) was 13.2 pM and the IC80 (pseudovirus neutralization) turned out to be 0.0337 nM. In addition, in experiment [1], the IC50, pseudovirus neutralization (BA.4/5) was > 66.7 nM and the IC80, pseudovirus neutralization (BA.4/5) was > 66.7 nM.

For the substance B1-182 mAb (antibody), in experiment [1], the IC50, pseudovirus neutralization (BA.4/5) is > 66.7 nM and the IC80, pseudovirus neutralization (BA.4/5) is > 66.7 nM.

In the case of B1-182.1 (antibody), the results for the IC50 (pseudovirus neutralization) in experiment [5] and in experiment [6] were 1.57 nM and > 10000 nM, respectively. Besides, the results for the IC80 (pseudovirus neutralization) in experiment [5] and in experiment [6] were 7.25 nM and > 10 µM, respectively. Moreover, the pseudovirus neutralization IC50 (nM (inferred)) came out at 0.008 in experiment [2] and 0.0261 in experiment [3]. Besides, the pseudovirus neutralization IC80 (nM (inferred)) in experiment [2] amounted to 0.0192; in experiment [3], 0.086.

In the case of “MX409 (A23-58H/B1-182L Tetravalent) (antibody)”, in experiment [4], the IC50 (pseudovirus neutralization) stood at 5.1 pM and the IC80 (pseudovirus neutralization) was 0.0113 nM.

In the case of “MX466 (A23-58H/B1-182L Cl-CH1 Tetravalent) (antibody)”, in experiment [1], the IC50, pseudovirus neutralization (BA.4/5) is > 66.7 nM and the IC80, pseudovirus neutralization (BA.4/5) is > 66.7 nM.

Consider S2E12 (antibody), for which the IC50 (pseudovirus neutralization) worked out at 1.2 nM in experiment [5] and 713 nM in experiment [6]. In addition, the IC80 (pseudovirus neutralization) came out at 2.6 nM in experiment [5] and 3.97 µM in experiment [6].

For bebtelovimab (LY1404) (antibody), in experiment [7], the IC50 (pseudovirus neutralization) is 4.98 nM and the IC80 (pseudovirus neutralization) was 20.2 nM.
